The record followed here is patent publication US20240352445A1 (published 2024).

Numbering of substitutions follows the chain as printed.

Assay [1] concerns the target SARS-CoV-2 spike protein trimer, Delta (B.1.617.2) variant (SARS-CoV-2, UniProt P0DTC2 16-1213). The assay can be described thus: sVNT ACE2 blocking ELISA. A general note: ELISA stands for enzyme-linked immunosorbent assay.
For assay [2], the target named is T1, SARS-CoV-2 spike protein trimer, Omicron (B.1.1.529) variant (SARS-CoV-2, UniProt P0DTC2 16-1213). The assay can be described thus: sVNT ACE2 blocking ELISA.
Assay [3] concerns the target T2, SARS-CoV-2 spike protein trimer, Omicron (BA.2) variant (SARS-CoV-2, UniProt P0DTC2 16-1213). The experiment in a line: sVNT ACE2 blocking ELISA.
In assay [4] the target is T1, SARS-CoV-2 spike protein trimer, …. The assay can be described thus: IC50 (assay not stated).
In assay [5] the target is T2, SARS-CoV-2 spike protein trimer, …. The experiment in a line: IC50 (assay not stated).

B1: G10xA3 (antibody, V domains shown)
VH: EVQLVESGGGLVQPGGSLRLSCEASGFTFPNQAMTWVRQAPGKGLEWIGVIASNADTYYASWAKGRFTISRDNSKNTLYLQMNSLRAEDTAVYYCARHPGSAGYGYGHYYAMDPWGQGTLVTVSS
VL: DIQMTQSPSSLSASVGDRVTITCQASERVFYGIDWYQQKPGKAPKLLIYGASALWHGVPSRFSGSGSGTDYTLTISSLQPEDFATYYCQQGYMVPIGFGGGTKVEIK
For the molecule B1, the IC50 (in general, the concentration at which inhibition is half-maximal) amounted to 1.79 ng/mL in assay [1]; 3.17 ng/mL in assay [2]; 13 ng/mL in assay [3]; 3.84 ng/mL in assay [4]; 20.4 ng/mL in assay [5].

B2: G10xE6 (antibody, V domains shown)
VH: B1 VH with E23K, T28S, F29L, P30S, N31P, Q32Y, M34V, G107A, H108V
VL: B1 VL
With B2, the results for the IC50 in assay [1], in assay [2] and in assay [3] were 2 ng/mL, 2.07 ng/mL and 8.34 ng/mL, respectively.

B3: G10x2 (antibody, V domains shown)
VH: B1 VH with G16E, E23K, L85P, G107A, H108L
VL: B1 VL
Turning to B3, the IC50 in assay [1] turned out to be 2.81 ng/mL; in assay [2], 3.08 ng/mL; in assay [3], 10.8 ng/mL.

B4: G10xE5 (antibody, V domains shown)
VH: B1 VH with E23A, F27Y, T28S, F29I, P30T, N31H, M34V, G107A, H108L
VL: B1 VL
As to B4, the IC50 is 2.56 ng/mL in assay [1], 2.06 ng/mL in assay [2] and 9.24 ng/mL in assay [3].

B5: Gx10E2 (antibody, V domains shown)
VH: B1 VH with E23T, F27Y, F29V, P30Q, N31R, Q32H, M34I, H108M, A111S
VL: B1 VL
In the case of B5, the IC50 in assay [1] came to 2.31 ng/mL; in assay [2] it was 3.47 ng/mL; in assay [3], 14.1 ng/mL.
